The values below are quoted from earlier work in patent US20170246235A1, “GREEN TEA COMPOSITIONS” (priority 2014, published 2017).

This data set deals with T1, HIV-1 integrase (Human immunodeficiency virus type 1 group M subtype B, UniProt P04585).
T1 construct: Full-length recombinant HIV-1 integrase protein (200 nM, purified from bacteria); literature Express Biotech International; host or cells: bacteria
Particulars: cited from earlier work.

catechin gallate [CG]: the “IC50 for HIV-1 integrase” value is “slightly higher than Raltegravir”.
